## Mutational interference map of HIV-1 RNA dimerization

RNA: 5' end of the HIV-1 NL4-3 genome, made in vitro. Positions 1-437 read:
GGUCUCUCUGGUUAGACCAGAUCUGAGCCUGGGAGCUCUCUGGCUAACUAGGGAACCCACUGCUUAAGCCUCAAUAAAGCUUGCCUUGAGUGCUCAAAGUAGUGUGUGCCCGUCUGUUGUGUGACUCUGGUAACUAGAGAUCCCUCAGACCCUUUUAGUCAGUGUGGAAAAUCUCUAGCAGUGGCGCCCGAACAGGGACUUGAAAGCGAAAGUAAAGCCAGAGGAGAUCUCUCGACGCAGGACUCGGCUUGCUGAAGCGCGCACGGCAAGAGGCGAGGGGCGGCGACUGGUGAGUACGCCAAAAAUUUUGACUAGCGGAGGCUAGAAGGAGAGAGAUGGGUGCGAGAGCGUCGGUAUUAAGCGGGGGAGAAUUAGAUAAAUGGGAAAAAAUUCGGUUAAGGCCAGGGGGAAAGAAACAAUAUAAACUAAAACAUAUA

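Randomly mutated transcripts starting with one, two or three G (1G, 2G, 3G), capped or uncapped, were folded for 30 min at 37 °C. High salt was 300 mM KCl and 5 mM MgCl2, low salt 40 mM KCl and 0.1 mM MgCl2; monomer and dimer were parted on a native gel. Kdimer compares mutation frequencies in monomer and dimer, corrected for sequencing errors.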

Scale: median log2 Kdimer over the changes at a position; positive = changes inhibit dimerization, negative = changes enhance it.
One numbering serves 1G, 2G and 3G.
A position is written with its base where known.
Bases beyond 437 are not listed in the source.

position,1G uncapped high-salt,2G capped high-salt,3G uncapped high-salt,2G uncapped high-salt
G158,-0.04,-0.39,-0.16,0.00
U41,-0.06,-0.29,-0.08,-0.07
A301,0.44,0.39,0.55,0.46
G335,0.13,-0.09,-0.04,-0.06
G32,0.08,0.11,0.10,0.01
C243,0.98,0.74,1.03,1.05
C229,0.33,0.41,0.46,0.36
C403,0.11,-0.07,-0.16,0.04
472,0.04,0.03,0.05,0.01
512,0.10,-0.13,0.09,0.06
U176,0.27,0.10,-0.07,0.16
A410,0.00,0.03,0.04,-0.02
A21,0.18,0.04,0.13,0.00
C248,0.99,0.55,0.79,0.75
G137,0.26,0.18,0.19,0.33
493,0.08,0.15,0.18,0.07
G251,6.76,3.82,5.86,5.73
499,0.14,-0.01,0.01,0.04
G272,-0.19,-0.33,-0.21,-0.22
U174,0.10,-0.41,0.01,-0.21
C312,0.21,0.29,0.28,0.41
A210,0.19,0.10,0.14,0.12
U30,-0.19,0.02,-0.05,0.05
462,0.12,-0.02,0.06,0.12
G184,0.37,0.17,0.34,0.22
G130,0.24,0.32,0.40,0.34
C143,0.06,0.13,0.01,0.19
G90,0.12,-0.08,0.01,0.04
C134,0.15,-0.13,0.14,-0.03
502,-0.02,-0.02,0.14,-0.11
U71,0.03,0.22,0.12,0.28
C231,0.30,0.31,0.37,0.32
G83,-0.11,-0.11,-0.06,-0.14
A194,0.13,0.07,0.21,0.20
A242,1.38,0.72,1.15,0.98
A220,0.21,0.17,0.25,0.13
G162,0.11,0.01,-0.11,0.23
U232,0.30,0.29,0.21,0.32
U135,0.24,0.20,0.19,0.24
441,-0.01,-0.03,0.11,0.06
A418,0.13,0.16,0.14,0.17
G92,0.49,0.71,0.47,0.40
C69,0.12,-0.01,-0.01,0.13
C48,-0.08,-0.33,0.17,-0.06

A selection of 2 entries from above:

{"position": "G335", "1G uncapped high-salt": 0.13, "2G capped high-salt": -0.09, "3G uncapped high-salt": -0.04, "2G uncapped high-salt": -0.06}
{"position": "U232", "1G uncapped high-salt": 0.30, "2G capped high-salt": 0.29, "3G uncapped high-salt": 0.21, "2G uncapped high-salt": 0.32}

The measurements come from Ye et al. 2022 (doi:10.1038/s41594-022-00746-2).